According to US11376232B2, “Vidofludimus for use in the treatment or prevention of viral diseases” (Immunic AG, priority 2020, dated 2022):
Structures can show the parent of a compound that is named as a salt.

Tested on: SARS-CoV-2 infection (COVID-19)
Conditions: human, in vivo

For `COc1cccc(-c2ccc(NC(=O)C3=C(C(=O)O)CCC3)c(F)c2)c1` [IMU-838, 1-cyclopentene-1-carboxylic acid, 2-(((3-fluoro-3′-methoxy(1,1′-biphenyl)-4-yl)amino)carbonyl)-, calcium salt (2:1)], the safety and tolerability was “safe and well-tolerated”.
